Results published in PMC11427369 (Frontiers in Pharmacology, 2024).

Molecular target: C2I (Clostridium botulinum, UniProt O69275)
Assay: in vitro ADP-ribosylation of actin in HeLa lysate, Western blot
Conditions: 15-120 µM DSF; 1 nM C2I; biotinylated NAD+; 1 mM DTT, pH 7.5, 37°C, 30 min; HeLa lysate as actin source

Compound: CCN(CC)C(=S)SSC(=S)N(CC)CC [disulfiram]
- in vitro ADP-ribosylation of actin in HeLa lysate, Western blot: indicating a concentration-dependent inhibition of C2I activity by DSF
